Assay results: patent US20090068207A1, “Compositions Containing Beta 2-Glycoprotein I-Derived Peptides for the Prevention and/or Treatment of Vascular Disease” (Vascular Biogenics Ltd., priority 2005, published 2009)

Experiment: Body weight, plasma cholesterol and triglyceride after nasal administration (LDL-RD mice)
Format: in vivo
Details: END, intranasal 10 μg/mouse every other day for 5 days, then Western diet, mean ± S.E

HSP-65: recombinant mycobacterial heat shock protein HSP 65
Weight: 26.8 ± 0.9 g
